A mixed list of measured activities; the numbers were collected in NIAID ChemDB.

All rows: toxicity to cultured cells; cells: C8166; read-out: CC50

An empty or dashed field is not shown. Lines come from different laboratories, so protocols vary. CCn is the concentration with n% toxicity to the cells.

SMILES	read by	result
CN(Cc1ncc[nH]1)Cc1ncccc1CCC#N	MTT	>10 µM
Cc1cc(S(N)(=O)=O)ccc1NC(=O)COc1ccc(Cl)cc1Oc1ccc2ccccc2c1Br	MTT / absorbance	48.05 µM
CN(Cc1nc2ncccc2[nH]1)Cc1ncccc1CCC#N	MTT	>10 µM
Cc1c(Cc2cccc3ccccc23)nc(SCC(=O)c2ccco2)[nH]c1=O	MTT	>512 µM
Cc1cc(S(N)(=O)=O)ccc1NC(=O)COc1ccc(Cl)cc1Oc1c(C)cc2ccccc2c1Cl	MTT / absorbance	42.61 µM
CCc1c(Cc2cccc3ccccc23)nc(SCC(=O)c2cccs2)[nH]c1=O	MTT	227 µM
CN(Cc1ccccn1)Cc1nc2ccccc2[nH]1	MTT	>10 µM
O=C(c1cc2c([nH]c3ccccc32)c(-c2cccs2)n1)N1CCC(c2ccccc2Cl)CC1	MTT	>400 µM
Cc1cccnc1CN(Cc1nc2nccc(N3CCN(C)CC3)c2[nH]1)Cc1ncccc1C	MTT	1.8 µM
CC(=O)OC[C@H]1O[C@@H](n2cc(C)c(-n3cncn3)nc2=O)C[C@@H]1N=[N+]=[N-]		80 µM
CCc1c(Cc2ccccc2)nc(SCC(=O)c2cccs2)[nH]c1=O	MTT	95.7 µM
CCOP(=O)(N[C@@H](C)C(=O)OCc1ccccc1)OC[C@H]1O[C@@H](n2cc(C)c(=O)[nH]c2=O)C[C@@H]1N=[N+]=[N-]		>100 µM
Cc1cc(S(N)(=O)=O)ccc1NC(=O)COc1ccc(F)cc1Oc1cc2ccccc2cc1C	MTT / absorbance	66.87 µM
COc1ccc(CCSc2nc(Cc3cccc4ccccc34)c(C(C)C)c(=O)[nH]2)cc1	MTT	112 µM
O=C(c1cc2c([nH]c3ccccc32)c(-c2cccs2)n1)N1CCC(Cc2ccccc2)CC1	MTT	>400 µM
CN(Cc1ncccc1CCC#N)Cc1nc2ccccc2n1C(=O)OC(C)(C)C	MTT	>10 µM
C=C(C)[C@@]1(O)[C@@H]2OC3(c4ccccc4)O[C@H]1[C@@H](C)[C@@]1(O3)[C@H]2[C@H](OC(C)=O)[C@@]2(C)O[C@@]3([C@@H]2OCc2ccccc2)[C@@H](OC(C)=O)[C@@H](C)C[C@@]13C	MTT	>0.2967 µM
CC(C)c1c(Cc2cccc3ccccc23)nc(SCC(=O)c2ccccc2)[nH]c1=O	MTT	>467 µM
CCCCCCOP(=O)(N[C@H](C(=O)OC)C(C)C)OC[C@H]1O[C@@H](n2cc(C)c(=O)[nH]c2=O)C[C@@H]1N=[N+]=[N-]		>100 µM
CCc1c(-c2ccc3c(c2)OCO3)nc(SCc2cc(-c3ccc(C)cc3)n[nH]2)[nH]c1=O	MTT	102 µM
CN(Cc1nc2ccccc2s1)Cc1ncccc1CCC#N	MTT	>10 µM
CC(=O)O[C@@]12[C@H](OC(=O)CCCCC3SCC4NC(=O)NC43)[C@@H](C)[C@@]3(O)[C@@H](C=C(CO)C[C@]4(O)C(=O)C(C)=C[C@@H]34)[C@@H]1C2(C)C	MTT	>200 µM
O=c1nc(Oc2c(F)c(F)c(F)c(F)c2F)ccn1[C@@H]1O[C@H](CO)[C@@H](O)[C@H]1O		200 µM
CCN(CC)P(=O)(OC[C@H]1O[C@@H](n2cc(C)c(=O)[nH]c2=O)C[C@@H]1N=[N+]=[N-])N(CC)CC		>100 µM
O=c1ccn([C@@H]2O[C@H](CO)C=C2F)c(=O)[nH]1		>100 µM
CCc1c(Cc2cccc3ccccc23)nc(SCC(=O)c2ccc(OC)cc2)[nH]c1=O	MTT	>450 µM
CC/C=C\C/C=C\C/C=C\C/C=C\C/C=C\CCCC(=O)O[C@@H]1[C@@H](C)[C@@]2(O)[C@@H](C=C(COC(C)=O)C[C@]3(O)C(=O)C(C)=C[C@@H]23)[C@@H]2C(C)(C)[C@]12OC(C)=O	MTT	54.22 µM
C=C(C)OCC12O[C@@]3([C@@H]1OC(C)=O)[C@@H](OC(C)=O)[C@@H](C)C[C@H]3[C@]1(O)[C@H]([C@@H](OC(C)=O)[C@](OCc3ccccc3)(C(=C)C)[C@@H](OC(C)=O)[C@H]1C)[C@@H]2OC(C)=O	MTT	>0.2591 µM
O=c1nc(-n2cncn2)ccn1[C@@H]1O[C@H](CO)[C@@H](O)[C@H]1O		400 µM
Cc1cc(S(N)(=O)=O)ccc1NC(=O)COc1ccc(Cl)cc1Oc1ccc2ccccc2c1	MTT / absorbance	119 µM
CC1=C[C@H]2[C@@]3(O)[C@H](C)[C@@H](OC(=O)CCCCCCCCCBr)[C@]4(OC(=O)CCCCCCCCCBr)[C@H]([C@@H]3C=C(CO)C[C@]2(O)C1=O)C4(C)C	MTT	26.2 µM
Cc1cn([C@H]2C[C@H](N=[N+]=[N-])[C@@H](CO)O2)c(=O)[nH]c1=O	MTT	1.32 µM
COc1ccc(N2CCN(C(=O)c3cc4c([nH]c5ccccc54)c(-c4cccs4)n3)CC2)cc1	MTT	>400 µM
CC(C)c1c(Cc2cccc3ccccc23)nc(Sc2cccs2)[nH]c1=O	MTT	230 µM
C=C(C)[C@@]12OC3(C)O[C@@H]1[C@@H]1[C@H](O)[C@@](C)(O)[C@@H](O)[C@@]4(O)[C@@H](C[C@H](C)[C@@H]4OC(C)=O)[C@@]1(O3)[C@H](C)[C@@H]2OCc1ccccc1	MTT	0.1176 µM
Cc1cc(S(N)(=O)=O)ccc1NC(=O)COc1ccc(F)cc1Oc1c(C)cc2ccccc2c1Cl	MTT / absorbance	55.6 µM
C=C(C)[C@@]12OC3(C)O[C@@H]1[C@@H]1[C@H](O)[C@@](C)(O)[C@@H](OC(C)=O)[C@@]4(O)[C@@H](C[C@H](C)[C@@H]4O)[C@@]1(O3)[C@H](C)[C@@H]2OCc1ccccc1	MTT	0.1304 µM
CC(=O)OC[C@H]1O[C@@H](n2cc(C)c(Oc3c(F)c(F)c(F)c(F)c3F)nc2=O)C[C@@H]1OC(C)=O		80 µM
CC1=C[C@H]2[C@@]3(O)[C@H](C)[C@@H](O)[C@]4(OC(=O)CCc5ccccc5)[C@H]([C@@H]3C=C(CO)C[C@]2(O)C1=O)C4(C)C	MTT	>200 µM
COC(=O)[C@@H](NP(=O)(N[C@H](C(=O)OC)C(C)C)OC[C@H]1O[C@@H](n2cc(C)c(=O)[nH]c2=O)C[C@@H]1N=[N+]=[N-])C(C)C		>100 µM
O=C(c1cc2c([nH]c3ccccc32)c(-c2cccs2)n1)N1CCC(c2cccc(Cl)c2Cl)CC1	MTT	>400 µM

A second listing of 4 rows from above:

SMILES	read by	result
CC1=C[C@H]2[C@@]3(O)[C@H](C)[C@@H](OC(=O)CCCCCCCCCBr)[C@]4(OC(=O)CCCCCCCCCBr)[C@H]([C@@H]3C=C(CO)C[C@]2(O)C1=O)C4(C)C	MTT	26.2 µM
C=C(C)[C@@]12OC3(C)O[C@@H]1[C@@H]1[C@H](O)[C@@](C)(O)[C@@H](OC(C)=O)[C@@]4(O)[C@@H](C[C@H](C)[C@@H]4O)[C@@]1(O3)[C@H](C)[C@@H]2OCc1ccccc1	MTT	0.1304 µM
CCc1c(Cc2ccccc2)nc(SCC(=O)c2cccs2)[nH]c1=O	MTT	95.7 µM
Cc1cccnc1CN(Cc1nc2nccc(N3CCN(C)CC3)c2[nH]1)Cc1ncccc1C	MTT	1.8 µM